Results of unrelated studies side by side (data: NIAID ChemDB).

Shared fields: growth or infection tests; agent: Human cytomegalovirus

An empty or dashed field is not shown.

structure | read-out | strain or isolate | method | cells | dose | result
OC[C@H]1O[C@@H](n2c(Br)nc3cc(Cl)c(Cl)cc32)[C@H](O)[C@@H]1O | EC50 | DAVIS | plaque count | HFF | - | 0.6 µM
COc1cccc(N2CCN(C3=Nc4c(F)cccc4[C@H](CC(=O)O)N3c3cc(C(F)(F)F)ccc3OC)CC2)c1 | EC50 | Clinical isolate 7 | plaque count | - | - | 0.001 µM
O=C(NCc1ccc(Cl)cc1)c1c[nH]c2ccc(C#CCO)cc2c1=O | EC50 | PHO | plaque count | - | - | 1.3 µM
Nc1ccn([C@@H]2O[C@H](CO)[C@@H](O)[C@@H]2O)c(=O)n1 | inhibition | - | plaque count | HEL | 0.01 µM | 28.3%
CC(C)Nc1nc2cc(Cl)c(Cl)cc2n1[C@H]1O[C@@H](CO)[C@H](O)[C@@H]1O | EC50 | C8303 | plaque count | MRC-5 | - | 0.54 µM
OC[C@H]1O[C@@H](n2c(Br)nc3cc(Cl)c(Cl)cc32)[C@H](O)[C@@H]1O | EC90 | TOWNE | virus yield | HFF | - | 0.9 µM
Cn1cc(C(=O)NCc2ccc(Cl)cc2)c(=O)c2cc(CN3CCOCC3)ccc21 | inhibition | NE | plaque count | HFF | 5.9 µM | 90%
Nc1nc2c(ncn2C=C2CC2CO)c(=O)[nH]1 | EC90 | VR5611 (ganciclovir-susceptible) | plaque count | - | - | 4.3 µM
O=c1[nH]c(=O)n([C@H]2C[C@H](O)[C@@H](CO)O2)cc1/C=C/Br | inhibition | - | plaque count | HEL | 75 µM | 53%
Nc1nc2c(ncn2COC(CO)CO)c(=O)[nH]1 | EC90 | TOWNE | virus yield | HFF | - | 1.6 µM
O[C@@H]1[C@H](O)[C@H](O)CO[C@H]1n1c(Br)nc2cc(Cl)c(Cl)cc21 | EC50 | 759RD100 (drug-resistant) | plaque count | HFF | - | 2.1 µM
OC[C@H]1O[C@@H](n2c(Br)nc3cc(Cl)c(Cl)cc32)[C@H](O)[C@@H]1O | EC50 | Recombinant C4 (D341E) | plaque count | - | - | 32 µM
Nc1nc2c(ncn2COC(CO)CO)c(=O)[nH]1 | EC50 | 4955REC (THR700ALA) | hybridisation | MRC-5 | - | 0.7 µM
Cc1ccc2ncnc(Nc3ccc(Cl)c(Cl)c3)c2c1 | inhibition | AD169-GFP | flow cytometry | HFF | 10 µM | 95.2%

Repeating the final 2 entries:

structure | read-out | strain or isolate | method | cells | dose | result
Nc1nc2c(ncn2COC(CO)CO)c(=O)[nH]1 | EC50 | 4955REC (THR700ALA) | hybridisation | MRC-5 | - | 0.7 µM
Cc1ccc2ncnc(Nc3ccc(Cl)c(Cl)c3)c2c1 | inhibition | AD169-GFP | flow cytometry | HFF | 10 µM | 95.2%

Lines come from different laboratories, so protocols vary. Inhibition is in % at the dose shown (toxicity tests: loss of growth or viability). ECn: concentration that inhibits the pathogen or its effect by n%.